Literature values, collected in patent publication US20090162921A1 (priority 2005, published 2009).

Test system: mouse
Details: for LD50: oral toxicity, arsenic species at various steps of methylation

C[As](=O)(O)O
LD50 (50% of the fatal dose in mouse): 1800 mg/kg

arsenocholine
LD50 (50% of the fatal dose in mouse): 6000 mg/kg | LD50: 6,000 mg/kg

arsenous acid
LD50 (50% of the fatal dose in mouse): 4.5 mg/kg | LD50: 4.5 mg/kg

trimethylarsineoxide
LD50 (50% of the fatal dose in mouse): 10600 mg/kg | LD50: 10,600 mg/kg
